Pooled drug test results. Numbers come from NIAID ChemDB, via PubChem.

All rows: tests on isolated targets; agent: Pneumocystis carinii; protein: Dihydrofolate reductase; endpoint: IC50

Neighbouring rows are from separate reports. ICn: concentration for n% inhibition.

| compound | result |
|---|---|
| Cc1cc(C)cc(C(=O)OCc2ccc3nc(N)nc(N)c3c2)c1 | 0.52 µM |
| CC(Cc1c[nH]c2nc(N)nc(N)c12)c1ccc2c(c1)Cc1ccccc1-2 | 2.09 µM |
| Nc1nc(N)c2c(n1)-c1ccsc1CC2 | >352 µM |
| Nc1nc(N)c2cc(COC(=O)c3cccc4ccccc34)ccc2n1 | 0.11 µM |
| COc1ccc(OC)c(CCc2cc3c(=O)[nH]c(N)nc3[nH]2)c1 | >15 µM |
| COc1cc(CNCC2CCc3nc(N)nc(N)c3C2)cc(OC)c1OC | 8.5 µM |
| COc1ccc2ccc3cc4c(N)nc(N)nc4nc3c2c1 | >1.85 µM |
| Nc1nc2[nH]c(CCc3cccc4ccccc34)cc2c(=O)[nH]1 | >17 µM |
| COc1ccc(OC)c(C(C)Cc2c[nH]c3nc(N)nc(N)c23)c1 | 8.06 µM |
| Nc1nc2[nH]c(CCc3ccccc3Cl)cc2c(=O)[nH]1 | 20 µM |
| Nc1nc(N)c2cc(COC(=O)c3ccccc3-c3ccccc3)ccc2n1 | 0.69 µM |
| CC/C=C/CC1=C(C)Cc2c(N)nc(N)nc21 | 176 µM |
| Nc1nc(N)c2cc(COC(=O)c3ccc(-c4ccccc4)cc3)ccc2n1 | 11 µM |
| Nc1nc(N)c2c(n1)C1CCC(C2)C1 | 6.1 µM |
| COc1ccc2c(c1)CCc1cc3c(N)nc(N)nc3nc1-2 | 6.7 µM |
| COc1cccc(OC)c1-c1cccc(C(=O)OCc2ccc3nc(N)nc(N)c3c2)c1 | 1.6 µM |
| Nc1nc2[nH]c(CCc3ccccc3)cc2c(=O)[nH]1 | >19 µM |
| Nc1nc(N)c2cc3c(nc2n1)CCc1ccccc1-3 | 0.65 µM |
| Nc1nc(N)c2cc(COC(=O)c3ccccc3Cc3ccccc3)ccc2n1 | 1.4 µM |

A second listing of 2 rows from above:

compound,result
Nc1nc2[nH]c(CCc3ccccc3Cl)cc2c(=O)[nH]1,20 µM
Nc1nc(N)c2cc3c(nc2n1)CCc1ccccc1-3,0.65 µM